Results of unrelated studies side by side (data: NIAID ChemDB).

Common to all: growth or infection tests

ECn is the concentration giving n% inhibition of infection, replication or growth. Percent inhibition refers to the dose given; in toxicity tests it is the harm to the cells. Two numbers with a dash give a range or band. Conditions beyond the fields shown may differ between rows. An empty or dashed field is not shown.

compound,organism,strain or isolate,cells,method,measure,dose,result
N=C1c2ncn([C@@H]3O[C@H](CO)[C@@H](O)[C@H]3O)c2NCN1OCc1ccccc1,Influenza virus,TYPE A0/PR8/34,MDCK,cytopathic effect,EC50,-,320 µg/mL
[N-]=C=Nc1nncs1,Influenza A virus,Influenza A/Virginia/88 (H3N2),MDCK,virus yield,inhibition,1 µg/mL,90%
CNc1ncc2ncn([C@@H]3O[C@H](CO)[C@@H](O)[C@H]3F)c2n1,Influenza A virus,Recombinant A/X31,CEF,virus yield,EC50,-,0.9 µM
N=c1c2ncn([C@H]3C[C@H](O)[C@@H](CO)O3)c2ncn1O,Influenza virus,TYPE A0/PR8/34,MDCK,cytopathic effect,EC50,-,10 µg/mL
Nc1nc2c(ncn2[C@@H]2O[C@H](CO)[C@@H](O)[C@H]2F)c(=O)[nH]1,Influenza A virus,Recombinant A/X31,CEF,virus yield,EC50,-,0.55 µM
CCOC(=O)c1nc2ccc([N+](=O)[O-])cc2[nH]c1=O,Influenza virus,Maryland B,BSC-1/HELA,plaque count,EC50,-,40 µg/mL
CC(=O)N[C@H]1[C@H]([C@H](O)[C@H](O)CO)OC(C(=O)O)=C[C@@H]1N=C(N)N,Influenza A virus,H3N2 A/AICHI/1168,MDCK,virus yield,inhibition,0.6 µM,90%
CC(=O)N[C@H]1[C@H]([C@H](O)[C@H](O)CO)OC(C(=O)O)=C[C@@H]1N=C(N)N,Influenza A virus,H1N1 A/NWS/33,MDCK,-,EC50,-,>100 µM
Nc1nc2c(=O)[nH]cnc2n1[C@@H]1O[C@H](CO)[C@@H](O)[C@H]1F,Influenza A virus,Recombinant A/X31,CEF,virus yield,EC50,-,>20 µM
O=C(O)CCNS(=O)(=O)c1ccc2c(c1)Cc1ccccc1-2,Influenza B virus,B/LEE,CEF,plaque count,inhibition,31.7 µg/mL,29.6%
Nc1nc(Cl)c(/C=N/O)c(NCC2(CO)CC(CCc3ccccc3)C2)n1,Influenza B virus,B/GIFU/2/73,MDCK,plaque count,EC50,-,0.13–0.26 µM
Nc1nc2c(ccn2[C@@H]2C[C@H](CO)[C@@H](O)[C@@H]2O)c(=O)[nH]1,Influenza A virus,Influenza A/Victoria/3/75 (H3N2),-,-,MIC,-,>100 µg/mL
CCCN(CCc1cccc(O)c1)C(=O)[C@@H]1OC(C(=O)O)=C[C@H](N)[C@H]1NC(C)=O,Influenza B virus,-,-,plaque count,EC50,-,2.9 µg/mL
CCC(CC)[C@H](NC(C)=O)[C@@H]1[C@H](O)[C@@H](C(=O)O)C[C@H]1N=C(N)N,Influenza B virus,Beijing/184/93,MDCK,-,EC50,-,0.06 µM
Nc1ncc(N)c(NCC2(CO)CC(CCc3ccccc3)C2)n1,Influenza B virus,B/GIFU/2/73,MDCK,plaque count,EC50,-,13–17 µM
N=c1c2ncn([C@@H]3O[C@H](CO)[C@@H](O)[C@H]3O)c2ncn1O,Influenza virus,TYPE A0/PR8/34,MDCK,cytopathic effect,EC50,-,3.2 µg/mL
CCC(CC)O[C@@H]1C=C(C(=O)O)C[C@H](N)[C@H]1NC(C)=O,Influenza B virus,Panama/45/90,MDCK,-,EC50,-,1.5 µM
Nc1ccn([C@@H]2O[C@H](CO)[C@@H](O)[C@H]2F)c(=O)n1,Influenza A virus,Recombinant A/X31,CEF,virus yield,EC50,-,2.5 µM
CCC(CC)[C@H](NC(C)=O)[C@@H]1C[C@@H](C(=O)O)C[C@H]1N=C(N)N,Influenza A virus,H1N1 A/Beijing/252/95,MDCK,-,EC50,-,0.56 µM
Nc1ccn([C@@H]2C=C(CO)[C@@H](O)[C@H]2O)c(=O)n1,Influenza C virus,-,MDCK,cytopathic effect,EC50,-,4.5 µg/mL
Cc1cccc(CON2CNc3c(ncn3[C@@H]3O[C@H](CO)[C@@H](O)[C@H]3O)C2=N)c1,Influenza virus,TYPE A0/PR8/34,MDCK,cytopathic effect,EC50,-,100 µg/mL
Nc1nc(Cl)cc(NCC2(CO)CC2)n1,Influenza B virus,B/GIFU/2/73,MDCK,plaque count,EC50,-,>440 µM
CCC(CC)O[C@@H]1C=C(C(=O)O)C[C@H](N)[C@H]1NC(C)=O,Influenza B virus,Isolate C17C,MDCK,plaque count,EC50,-,0.055 µg/mL
Nc1nc(Cl)cc(NCC2(CO)CCCCC2)n1,Influenza B virus,B/GIFU/2/73,MDCK,plaque count,EC50,-,150 µM
CCC,Influenza A virus,Sichuan/2/87 (H3),MDCK,-,EC50,-,>500 µM
O=c1[nH]cnc2c1ncn2[C@@H]1O[C@H](CO)[C@@H](O)[C@H]1F,Influenza A virus,Recombinant A/X31,CEF,virus yield,EC50,-,1.4 µM
N#Cc1cnc(N)nc1NCC1(CO)CC(CCc2ccccc2)C1,Influenza B virus,B/GIFU/2/73,MDCK,plaque count,EC50,-,2.1–2.4 µM
Cn1cnc2c(ncn2[C@@H]2O[C@H](CO)[C@@H](O)[C@H]2O)c1=N,Influenza virus,TYPE A0/PR8/34,MDCK,cytopathic effect,EC50,-,100 µg/mL
CC(N)C12CC3CC(CC(C3)C1)C2,Influenza A virus,Influenza A H3N2 isolate 7,MDCK,ELISA,EC50,-,7 µg/mL
Nc1cc(Cl)nc(N)n1,Influenza B virus,B/GIFU/2/73,MDCK,plaque count,EC50,-,>690 µM

3 of the rows above, restated:

{"compound": "CCCN(CCc1cccc(O)c1)C(=O)[C@@H]1OC(C(=O)O)=C[C@H](N)[C@H]1NC(C)=O", "organism": "Influenza B virus", "method": "plaque count", "measure": "EC50", "result": "2.9 µg/mL"}
{"compound": "Nc1nc2c(ncn2[C@@H]2O[C@H](CO)[C@@H](O)[C@H]2F)c(=O)[nH]1", "organism": "Influenza A virus", "strain or isolate": "Recombinant A/X31", "cells": "CEF", "method": "virus yield", "measure": "EC50", "result": "0.55 µM"}
{"compound": "CCC(CC)O[C@@H]1C=C(C(=O)O)C[C@H](N)[C@H]1NC(C)=O", "organism": "Influenza B virus", "strain or isolate": "Isolate C17C", "cells": "MDCK", "method": "plaque count", "measure": "EC50", "result": "0.055 µg/mL"}